Source: patent publication US7033509B2 (priority 2000, dated 2006)

Tested on: fungi on the surface of potato
Assay: Potato (Sanitizing Unit), total fungi on surface
Assay type: cell-based
Conditions: Sanitizing Unit dip 1 min, 30 ppm, vs undipped control

## chlorine
  Fungal population per cm^2 Log10 reduction: 1.46 c log10 units
